Data reported in PMC5940772 (Nature Communications, 2018).

B1: His-tagged TRIM25-CC (coiled-coil domain of TRIM25, 189-379) (domain or fragment)
chain: ASLSQASADLEATLRHKLTVMYSQINGASRALDDVRNRQQDVRMTANRKVEQLQQEYTEMKALLDASETTSTRKIKEEEKRVNSKFDTIYQILLKKKSEIQTLKEEIEQSLTKRDEFEFLEKASKLRGISTKPVYIPEVELNHKLIKGIHQSTIDLKNELKQCIGRLQEPTPSSGDPGEHDPASTHKSTRP
B2: NS1-ED (R140A) (domain or fragment)
chain: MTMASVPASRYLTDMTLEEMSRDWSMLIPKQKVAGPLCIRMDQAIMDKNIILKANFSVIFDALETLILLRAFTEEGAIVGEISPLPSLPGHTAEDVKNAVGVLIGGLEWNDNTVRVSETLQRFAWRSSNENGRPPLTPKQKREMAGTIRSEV

Columns and labels:
[1] = biological target: His-tagged TRIM25-CC (coiled-coil domain of TRIM25, 189-379) (UniProt Q14258); experiment: BLI
[2] = biological target: NS1-FL (W187A), strain A/Puerto Rico/8/1934 H1N1 (influenza A virus, strain A/Puerto …, UniProt P03496 1-230, W187A)
[3] = biological target: NS1-FL (R38A/K41A/W187A), strain A/Puerto Rico/8/1934 H1N1 (influenza A virus, strain A/Puerto …, UniProt P03496 1-230, R38A | K41A | W187A)
[4] = biological target: B1

NS1-FL wild type (A/Puerto Rico/8/1934 H1N1) R38A; K41A
Kd [1]: 25.2 µM

B1
Kd [2]: 12.5 µM | Kd [3]: 8.2 µM

B2
Kd [4]: 24.1 µM
